We go through four molecules from PMC9866706 (Toxins, 2022).

By UniProt entry, the sequences of proteins in these tests, tags left out. Residues count along the entry.
UniProt P36544, 23-502 limits assumed: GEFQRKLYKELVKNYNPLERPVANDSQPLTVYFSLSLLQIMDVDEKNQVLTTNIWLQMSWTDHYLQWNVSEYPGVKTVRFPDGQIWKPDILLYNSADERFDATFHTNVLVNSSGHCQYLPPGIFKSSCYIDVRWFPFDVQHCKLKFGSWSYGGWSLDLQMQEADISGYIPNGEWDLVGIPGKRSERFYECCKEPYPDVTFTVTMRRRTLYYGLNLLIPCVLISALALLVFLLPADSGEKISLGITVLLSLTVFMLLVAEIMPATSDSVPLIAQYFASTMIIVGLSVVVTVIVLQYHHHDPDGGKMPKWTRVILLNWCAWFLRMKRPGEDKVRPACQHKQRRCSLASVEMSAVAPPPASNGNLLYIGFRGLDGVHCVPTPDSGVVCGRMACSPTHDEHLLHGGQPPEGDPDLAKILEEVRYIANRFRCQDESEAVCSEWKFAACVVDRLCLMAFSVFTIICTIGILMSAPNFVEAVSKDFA

The target in one assay is human α7 nAChR (Homo sapiens, UniProt P36544). Kind of assay: [125I]α-Bgt-competitive radioligand binding assay, human α7 in GH4C1 cells. Particulars: recombinant peptides, mean (95% confidence interval); for IC50: GH4C1 cells 0.4 nM binding sites, 0.7–0.9 nM [125I]α-Bgt, 3.5 h room temperature, pH 8.0, triplicate; for Hill Slope: competition curve.
Assay [1] concerns the target muscle-type T. californica α1β1γδ nAChR (Tetronarce californica, UniProt P02710+P02712+P02714+P02718). The assay can be described thus: [125I]α-Bgt-competitive radioligand binding assay, T. californica membranes. Conditions: for Hill Slope: competition curve; for Hill Slope / IC50: mean (95% confidence interval); for IC50: membranes 0.55 nM binding sites, 0.7–0.9 nM [125I]α-Bgt, 3.5 h room temperature, pH 8.0, triplicate.

In general, IC50 refers to the concentration needed to halve the response being measured. As for `CC[C@H](C)[C@@H]1NC(=O)[C@H](C)NC(=O)[C@H]([C@@H](C)O)NC(=O)[C@H](C(C)C)NC(=O)[C@H]([C@@H](C)CC)NC(=O)[C@@H]2CSSC[C@H](N)C(=O)N[C@@H](C)C(=O)N[C@@H](CCC(N)=O)C(=O)N[C@@H]([C@@H](C)O)C(=O)NCC(=O)NCC(=O)N[C@@H]([C@@H](C)O)C(=O)N[C@H]3CSSC[C@H](NC1=O)C(=O)N[C@@H](CO)C(=O)N[C@@H]([C@@H](C)O)C(=O)N[C@@H](C)C(=O)N[C@@H]([C@@H](C)O)C(=O)N[C@@H](CO)C(=O)N1CCC[C@H]1C(=O)N[C@@H](CCCCN)C(=O)N[C@@H]([C@@H](C)O)C(=O)N[C@H](C(=O)N[C@@H](Cc1ccccc1)C(=O)N[C@@H](Cc1ccc(O)cc1)C(=O)O)CSSC[C@H](NC(=O)[C@H](CC(=O)O)NC(=O)[C@H](CCCCN)NC(=O)[C@H](CO)NC(=O)[C@H](CCCCN)NC(=O)[C@H](CO)NC3=O)C(=O)N2`, at human α7 nAChR, the concentration for half-maximal inhibition (IC50) is more than 45 µM. Also, in assay [1] (recombinant peptides), the “Hill Slope” value is given as 1.14 (1.02–1.26) and the concentration for half-maximal inhibition (IC50) stood at 15 µM.

Consider `CC[C@H](C)[C@@H]1NC(=O)CNC(=O)[C@H](CCCNC(=N)N)NC(=O)CNC(=O)[C@H](CC(N)=O)NC(=O)CNC(=O)[C@H](Cc2ccc(O)cc2)NC(=O)[C@H](CC(N)=O)NC(=O)[C@@H]2CCCN2C(=O)[C@H](CCCNC(=N)N)NC(=O)[C@H](CCCNC(=N)N)NC(=O)[C@@H]2CSSC[C@@H]3NC(=O)[C@H](Cc4c[nH]cn4)NC(=O)[C@H](CO)NC(=O)[C@H](CC(N)=O)NC(=O)[C@H](CC(C)C)NC(=O)[C@H](CC(N)=O)NC(=O)[C@H](CCCCN)NC(=O)[C@@H](NC(=O)CN)CSSC[C@H](NC(=O)[C@H](CSSC[C@@H](C(=O)N[C@H](C(=O)N[C@@H](CCCNC(=N)N)C(=O)N[C@@H](C)C(=O)O)C(C)C)NC(=O)[C@H](CCCCN)NC(=O)[C@H](Cc4c[nH]c5ccccc45)NC(=O)[C@H](CC(C)C)NC1=O)NC(=O)[C@H](CCC(=O)O)NC(=O)[C@H](CCCNC(=N)N)NC(=O)[C@H](Cc1c[nH]cn1)NC(=O)[C@H](CCC(N)=O)NC(=O)[C@H](CCCNC(=N)N)NC(=O)[C@H](Cc1ccc(O)cc1)NC3=O)C(=O)N[C@@H](Cc1c[nH]cn1)C(=O)NCC(=O)N[C@@H](CC(C)C)C(=O)N[C@@H](C(C)C)C(=O)N2`, for which, on human α7 nAChR, the IC50 was found to be 14.1 µM.

On to `CC[C@H](C)[C@@H]1NC(=O)CNC(=O)[C@H](Cc2ccc(O)cc2)NC(=O)[C@H](CC(=O)O)NC(=O)[C@@H]2CCCN2C(=O)[C@H](CCCNC(=N)N)NC(=O)[C@H](CCCNC(=N)N)NC(=O)[C@@H]2CSSC[C@@H]3NC(=O)[C@H](Cc4ccc(O)cc4)NC(=O)[C@H](CO)NC(=O)[C@H](CC(N)=O)NC(=O)[C@H](CC(C)C)NC(=O)[C@H](CCCCN)NC(=O)[C@H](CCCCN)NC(=O)[C@@H](NC(=O)CN)CSSC[C@H](NC(=O)[C@H](CSSC[C@@H](C(=O)N[C@H](C(=O)N[C@@H](CCCNC(=N)N)C(=O)N[C@@H](C)C(=O)N[C@@H](CCCNC(=N)N)C(=O)N[C@@H](CCCCN)C(=O)O)[C@@H](C)O)NC(=O)[C@H](CCCCN)NC(=O)[C@H](Cc4c[nH]c5ccccc45)NC(=O)[C@H](CC(C)C)NC(=O)[C@H]([C@@H](C)CC)NC(=O)CNC(=O)[C@H](CCCNC(=N)N)NC(=O)CNC1=O)NC(=O)[C@H](CCC(=O)O)NC(=O)[C@H](CCCNC(=N)N)NC(=O)[C@H](Cc1c[nH]cn1)NC(=O)[C@H](CCC(N)=O)NC(=O)[C@H](CCCNC(=N)N)NC(=O)[C@H]([C@@H](C)O)NC3=O)C(=O)N[C@@H](Cc1c[nH]cn1)C(=O)NCC(=O)N[C@@H](CC(C)C)C(=O)N[C@@H](C(C)C)C(=O)N2` [Ms11a-3], for which, at human α7 nAChR, the “Hill Slope” value is reported as 2.37 (2.00–2.75) and the IC50 was determined as 19.8 µM. Further, in assay [1] (recombinant peptides), the “binding activity, muscle-type receptor” value is “greatest affinity”; the “Hill Slope” value is 0.98 (0.91–1.05); the half-inhibitory concentration (IC50) is 0.256 µM. For the same molecule, in assay [1] (α1β1γδ (T. californica) over human α7, radioligand binding), the “selectivity between α1β1γδ and α7 nAChRs” value is reported as 78 times.

`CC[C@H](C)[C@@H]1NC(=O)CNC(=O)[C@H](CCCNC(=N)N)NC(=O)CNC(=O)[C@H](CC(N)=O)NC(=O)CNC(=O)[C@H](Cc2ccc(O)cc2)NC(=O)[C@H](CC(N)=O)NC(=O)[C@@H]2CCCN2C(=O)[C@H](CCCNC(=N)N)NC(=O)[C@H](CCCNC(=N)N)NC(=O)[C@@H]2CSSC[C@@H]3NC(=O)[C@H](CC(N)=O)NC(=O)[C@H](CO)NC(=O)[C@H](CC(N)=O)NC(=O)[C@H](CC(C)C)NC(=O)[C@H](CCCCN)NC(=O)[C@H](CCCCN)NC(=O)[C@@H](NC(=O)CN)CSSC[C@H](NC(=O)[C@H](CSSC[C@@H](C(=O)N[C@H](C(=O)N[C@@H](CCCCN)C(=O)N[C@@H](C)C(=O)O)C(C)C)NC(=O)[C@H](CCCNC(=N)N)NC(=O)[C@H](Cc4c[nH]c5ccccc45)NC(=O)[C@H](CC(C)C)NC1=O)NC(=O)[C@H](CCC(=O)O)NC(=O)[C@H](CCCNC(=N)N)NC(=O)[C@H](Cc1ccc(O)cc1)NC(=O)[C@H](CCC(N)=O)NC(=O)[C@H](CCCNC(=N)N)NC(=O)[C@H](CO)NC3=O)C(=O)N[C@@H](Cc1c[nH]cn1)C(=O)NCC(=O)N[C@@H](CC(C)C)C(=O)N[C@@H](C(C)C)C(=O)N2`: on human α7 nAChR, the “Hill Slope” value is on record as 1.18 (1.11–1.25) and the concentration for half-maximal inhibition (IC50) turned out to be 14.2 µM. In assay [1] (recombinant peptides), the “Hill Slope” value is 0.96 (0.94–0.99) and the IC50 came to 0.408 µM.
